From PubChem BioAssay AID1259309 (ICCB-Longwood Screening Facility, Harvard Medical School, 2017)
Only a part is listed here, and it is no random draw. Some salts and complexes are drawn in separate pieces, as the source files them; their charges need not balance. Activity calls are given as the source filed them. Rule as the data show it: active = growth inhibition above about 68%; inactive = the rest.

Assay: growth inhibition of ugtP-null S. aureus, primary screen, RN4220 ugtP deletion, OD600 (AID 1259309);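 also: plate controls were untreated wells for no effect and antibiotic for full effect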
Conditions: 16 h, hits give high values

SMILES | growth inhibition
Cc1ccc(NC(=NP(=O)(N2CCOCC2)N2CCOCC2)N2CCOCC2)cc1 | inactive: -0.265%
N#CCCN(C(=O)COC(=O)C(O)(c1ccccc1)c1ccccc1)c1ccc(F)cc1 | inactive: 3.79%
CCOP1(=S)c2c(C)nn(CCC#N)c2N=C(c2ccc(F)cc2)N1C (stereo not given) | inactive: 4.34%
NC(=O)Nc1ccc([As](=O)(O)O)cc1 | inactive: -2.52%
Nc1ccccc1[As](=O)(O)c1ccccc1 | inactive: 5.62%
O=C(O)COc1ccc([As](=O)(O)O)cc1[N+](=O)[O-] | inactive: 14.4%
CCOP1(=S)c2c(C)nn(CCC#N)c2N=C(c2ccccc2F)N1C (stereo not given) | inactive: -7.82%
O=C(O)c1cccc(Nc2c([N+](=O)[O-])cc([N+](=O)[O-])cc2[N+](=O)[O-])c1 | inactive: 0.611%
O=P(Nc1nccs1)(c1ccccc1)c1nc2ccccc2s1 (stereo not given) | inactive: -0.658%
O=P(Nc1nccs1)(Oc1ccccc1)Oc1ccccc1 | inactive: 4.75%
CCOP(=O)(Nc1cccc2ccccc12)OCC | inactive: 4.48%
CCCOP(=S)(Nc1nc(N)cc(=O)[nH]1)OCCC | inactive: -2.62%
Cc1ccc(C)c(NP(C)(=O)Oc2ccccc2)c1 (stereo not given) | inactive: 7.95%
CP(=O)(Nc1cccc(Br)c1)Oc1ccccc1 (stereo not given) | inactive: 4.94%
Cc1cc(C)cc(OP(C)(=O)Nc2ccccn2)c1 (stereo not given) | inactive: -2.82%
Cc1ccc(NCCc2c([N+](=O)[O-])cc([N+](=O)[O-])cc2[N+](=O)[O-])cc1 | inactive: 22.9%
CC1C=CCP(=O)(Oc2ccccc2)O1 (stereo not given) | inactive: 1.13%
CCOC(=O)c1ccc(NP(C)(=O)Oc2cc(C)cc(C)c2)cc1 (stereo not given) | inactive: -0.246%
O=[As](O)(c1cccc(O)c1)c1cccc(O)c1 | inactive: -3.2%
Cc1cccc(OCC(=O)OC2CN3CCC2CC3)c1 (stereo not given) | inactive: 1.45%
Cc1cc(C)cc(OP(C)(=O)Nc2ccc(C)cc2C)c1 (stereo not given) | inactive: -4.67%
COc1cc(C(=O)NCC2(N3CCOCC3)CCCCC2)cc(Cl)c1OC(C)C | inactive: -3.05%
O=[As](O)(O)c1cccnc1 | inactive: -1.63%

SMILES | growth inhibition
COc1ccccc1OP(C)(=O)Nc1cccc(Br)c1 (stereo not given) | inactive: 8.71%
CS(=O)(=O)c1ccc(Cl)c(NC(=O)COC(=O)C(O)(c2ccccc2)c2ccccc2)c1 | inactive: 0.766%
O=C(OC1CN2CCC1CC2)c1ccc(Cl)cc1 (stereo not given) | inactive: 3.8%
O=[As](O)(c1ccccc1Br)c1ccccc1Br | inactive: 2.22%
CC1(CBr)Cn2c(nc3ccccc3c2=O)S1 (stereo not given) | inactive: 6.38%
Cc1nc2ccc3ccccc3c2s1.O=[N+]([O-])c1cc([N+](=O)[O-])c(O)c([N+](=O)[O-])c1 | inactive: 5.11%
COc1ccccc1CNC(=O)COC(=O)C(O)(c1ccccc1)c1ccccc1 | inactive: 4.29%
O=[N+]([O-])c1cc([N+](=O)[O-])c(-c2cnn(-c3ccccc3)c2)c([N+](=O)[O-])c1 | inactive: 33.8%
Clc1n[nH]nc1-c1nn[nH][15n]1 | inactive: -2.52%
CC(C)(C)C(=O)NC(Sc1ncccn1)C(Cl)(Cl)Cl (stereo not given) | inactive: 1.22%
CCOP(=O)(Nc1ccc(C)cn1)OCC | inactive: 2.31%
O=P1(Nc2ccccn2)COc2ccccc2OC1 | inactive: 2.62%
O=[N+]([O-])c1cc([N+](=O)[O-])c(-n2nnc3ccccc32)c([N+](=O)[O-])c1 | inactive: -5.27%
O=P1(Nc2ccc(Br)cn2)COc2ccccc2OC1 | inactive: -8.93%
NS(=O)(=O)c1cccc(NC(=O)COC(=O)C(O)(c2ccccc2)c2ccccc2)c1 | inactive: 2.74%
Cc1ccc(OCC(=O)OC2CN3CCC2CC3)cc1 (stereo not given) | inactive: 5.36%
O=[As](O)(c1cccs1)c1cccs1 | inactive: 8.24%
Nc1cccc([As](=O)(O)c2ccccc2)c1 | inactive: 5.95%
CP(=O)(Nc1ccc(SC(F)(F)F)cc1)Oc1ccccc1 (stereo not given) | inactive: 3.25%
CCCOc1ccc(NP(C)(=O)Oc2ccc(Cl)cc2)cc1 (stereo not given) | inactive: 6.98%
O=P1(Nc2ncccn2)COc2ccccc2OC1 | inactive: 6.44%
COc1ccccc1OP(C)(=O)Nc1c(C)cccc1C (stereo not given) | inactive: -1.2%
CN1CCCCC1COC(=O)C1(O)c2ccccc2CCc2ccccc21 (stereo not given) | inactive: 2.74%

SMILES | growth inhibition
O=C(/C=C/c1ccccc1)OC1CN2CCC1CC2 (stereo not given) | inactive: 17%
CCCC1OP(=O)(Nc2ccccc2)OCC1CC (stereo not given) | inactive: 7.75%
O=[N+]([O-])c1cc([N+](=O)[O-])c(Nc2nnnn2CCO)c([N+](=O)[O-])c1 | inactive: 16.1%
CN(C)C1(CNC(=O)c2ccc(S(C)(=O)=O)cc2)CCCCC1 | inactive: 0.936%
CCOC(=O)C(CC)C1=NC(C)(C)Cc2ccccc21.O=[N+]([O-])c1cc([N+](=O)[O-])c(O)c([N+](=O)[O-])c1 (stereo not given) | inactive: -5.45%
COc1cc(C2NCCC3(OCCO3)C2(C)C)cc(OC)c1OC.O=[N+]([O-])c1cc([N+](=O)[O-])c(O)c([N+](=O)[O-])c1 (stereo not given) | inactive: 2.85%
Cc1nn(-c2ccccc2)c2c1P(=O)(N1CCOCC1)N(C)C(c1ccccc1)=N2 (stereo not given) | inactive: 4.12%
CC1CCC(C(C)C)C(OP(=O)(Nc2ccccn2)c2ccccc2)C1 (stereo not given) | inactive: -8.97%
Cc1ccc(C(=O)OC2CN3CCC2CC3)cc1 (stereo not given) | inactive: 0.174%
CP(=O)(Nc1ccccc1Br)Oc1ccccc1 (stereo not given) | inactive: -0.246%
O=[N+]([O-])c1ccc(Nc2ccc(Oc3ccc([N+](=O)[O-])cc3[N+](=O)[O-])cc2)c([N+](=O)[O-])c1 | inactive: -6.02%
O=P(Nc1ccccn1)(c1cccc2ccccc12)c1cccc2ccccc12 | inactive: -2.39%
Cc1cc(SC(NC=O)C(Cl)(Cl)Cl)ncn1 (stereo not given) | inactive: 7.49%
COc1ccccc1OP(C)(=O)Nc1ccccc1 (stereo not given) | inactive: -0.0197%
CCOC(=O)Nc1cccc([As](=O)(O)O)c1 | inactive: 17.7%
CP(=S)(Nn1cnnc1)Oc1ccccc1 (stereo not given) | inactive: 6.53%
CCCCOc1ccc(C(=O)NCC2(N3CCCCC3)CCCCC2)cc1OC | inactive: 12.8%
Cc1cc(SC(NC(=O)c2ccccc2)C(Cl)(Cl)Cl)nc(C(C)C)n1 (stereo not given) | inactive: 7.04%
COc1ccc(NC(=NP(=O)(N2CCOCC2)N2CCOCC2)N2CCOCC2)cc1 | inactive: 4.28%
CC1CCNP(=O)(N(CCCl)CCCl)O1 (stereo not given) | inactive: 7.32%
CCOC(=O)Nc1ccc([As](=O)(O)O)c(O)c1 | inactive: 12.5%
CP(=O)(Nc1ccccn1)Oc1ccc(Cl)cc1 (stereo not given) | inactive: -1.73%
CCC(C)N(CC(C)C)C(=S)SC(NC(C)=O)C(Cl)(Cl)Cl (stereo not given) | inactive: 57.9%

SMILES | growth inhibition
CCOC(=O)c1ccc(NP(C)(=O)Oc2ccc(OC)cc2)cc1 (stereo not given) | inactive: -2.33%
CCOC(=O)c1ccc(NC(=O)C(C)(CCl)SC)cc1 (stereo not given) | inactive: 15.4%
O=[N+]([O-])c1cc([N+](=O)[O-])c(O)c([N+](=O)[O-])c1.c1ccc(Oc2ccncc2)cc1 | inactive: 4.24%
CCOP(C)(=S)SCC(=O)NC(C)C(=O)O (stereo not given) | inactive: 8.66%
O=C(OC1CN2CCC1CC2)c1cccc([N+](=O)[O-])c1 (stereo not given) | inactive: 10.8%
CCc1ccc(OP(C)(=O)N2CCN(c3ccc([N+](=O)[O-])cc3)CC2)cc1 (stereo not given) | inactive: 2.77%
O=C(COc1ccccc1)OC1CN2CCC1CC2 (stereo not given) | inactive: 0.268%
CP(=O)(NC(=O)Nc1ccccc1)Oc1ccccc1 (stereo not given) | inactive: 12%
O=C(Nc1ccncc1[N+](=O)[O-])c1ccc([N+](=O)[O-])cc1[N+](=O)[O-] | inactive: 20.9%
Cc1cc(C)cc(OP(C)(=O)Nc2ccc(SC(F)(F)F)cc2)c1 (stereo not given) | inactive: -11%
CC1OP(=O)(Oc2ccccc2)C(O)C(O)C1N=[N+]=[N-] (stereo not given) | inactive: -1.1%
Cc1cccc(C)c1OP(C)(=O)Nc1ccc(SC(F)(F)F)cc1 (stereo not given) | inactive: -17.2%
CP(=O)(Nc1ccc(SC(F)(F)F)cc1)Oc1ccc(Cl)cc1 (stereo not given) | inactive: -24.8%
COP1(=S)c2c(C)nn(CCC#N)c2N=C(c2ccc(F)cc2)N1C (stereo not given) | inactive: 4.85%
CP(=O)(Oc1ccccc1)OC(c1ccccc1)C(F)(F)F (stereo not given) | inactive: 6.12%
CCC(CO)(C(=O)OC1CN2CCC1CC2)c1ccccc1 (stereo not given) | inactive: 11.6%
COc1ccc2nc(NP(=O)(c3ccccc3)c3ccccc3)sc2c1 | inactive: 3.95%
COc1cc(I)ccc1[As](=O)(O)O | inactive: 7.68%
O=P1(N(CCCl)CCCl)Nc2ccccc2N1 | inactive: 2.33%
O=C(OC1CN2CCC1CC2)C12CC3CC(CC(C3)C1)C2 (stereo not given) | inactive: 5.7%
Cc1cc(=O)[nH]c(N[N+](=O)[O-])n1 | inactive: 7.2%
CCN(CC)CCCOC(=O)C(O)(c1ccccc1)c1ccccc1 | inactive: 6.76%
Cc1c2c(nc3ccccc13)SC(C(Cl)Cl)C2 (stereo not given) | inactive: -11.6%

SMILES | growth inhibition
Cc1cc(C)cc(OP(C)(N)=O)c1 (stereo not given) | inactive: 1.14%
CCN(CC)C(=S)SC(NC=O)C(Cl)(Cl)Cl (stereo not given) | inactive: 0.462%
O=C(OC1CN2CCC1CC2)c1cccc2[nH]cnc12 (stereo not given) | inactive: 3.57%
COc1ccccc1OP(C)(=O)Nc1cc(Cl)ccc1C (stereo not given) | inactive: -2.15%
CC(C)NC(=O)NP(=O)(Oc1ccccc1)Oc1ccccc1 | inactive: 1.05%
COc1ccc(OP(C)(=O)Nc2cccc(F)c2)cc1 (stereo not given) | inactive: 14.1%
COc1ccccc1OP(C)(=O)Nc1ccc(C)cc1 (stereo not given) | inactive: 3.57%
Cc1ccc(NP(C)(=O)Oc2ccccc2)c(C)c1 (stereo not given) | inactive: 1.03%
CC(C)c1ccc(OP(=O)(Nc2ccccn2)Oc2ccccc2F)cc1 (stereo not given) | inactive: -20.3%
CCOC(=O)c1ccc(NP(C)(=O)Oc2ccccc2)cc1 (stereo not given) | inactive: 2.26%
COc1ccc2c(c1O)-c1c(O)c(OC)cc3c1C(C2)[N+](C)(C)CC3.O=[N+]([O-])c1cc([N+](=O)[O-])c([O-])c([N+](=O)[O-])c1[O-] (stereo not given) | inactive: 0.968%
ClCCSc1nnc(-c2cccnc2)o1 | inactive: -0.467%
Cc1ccc2nc3c(c(C)c2c1)CC(C(Cl)Cl)S3 (stereo not given) | inactive: 11.2%
O=[N+]([O-])c1ccc2c(c1)C=Nc1ccccc1O2 | inactive: -4.65%
CC(C)(C)c1ccc(OP(C)(=O)Nc2ccc(SC(F)(F)F)cc2)cc1 (stereo not given) | inactive: -7.97%
Cc1ccc(OP(=O)(Nc2ccc([N+](=O)[O-])cn2)Oc2ccc(C)cc2)cc1 | inactive: 2.76%
Cc1cccc(C)c1OP(C)(N)=O (stereo not given) | inactive: 1.53%
C[As](=O)(O)c1cccc(C(=O)O)c1 | inactive: -2.4%
O=[As](O)(c1ccc(O)cc1)c1ccccc1O | inactive: 6.32%
COc1cc(C(=O)NCC2(N3CCOCC3)CCCCC2)ccc1OCC(C)C | inactive: 7.49%
O=[N+]([O-])c1ccc(-c2cc([N+](=O)[O-])c(O)c([N+](=O)[O-])c2)cc1 | inactive: 9%
CCCC(C)(O)C1CC23C=CC1(OC)C1Oc4c(O)ccc5c4[C@@]12CCN(C)[C@@H]3C5 (stereo not given in full) | inactive: 7.85%
O=[N+]([O-])c1cc([N+](=O)[O-])c(Nc2cccnc2)c([N+](=O)[O-])c1 | active: 97.5%
